Compound potency records, mixed from different reports. Data source: NIAID ChemDB in PubChem.

Shared fields: whole-cell or culture tests

Neighbouring rows are from separate reports. Inhibition is in % at the dose shown (toxicity tests: loss of growth or viability). An empty or dashed field is not shown. ECn: concentration that inhibits the pathogen or its effect by n%.

structure	dose	read by	cell line	agent	setting	strain	endpoint	value
CCO/C(Cc1ccc(Cl)c(Cl)c1)=N/NC(=O)OC(C)(C)C	5 µM	hypoxanthine uptake / radiometric		Plasmodium falciparum		3D7	inhibition	5%
CCN(CC)CCCn1ccc(=Nc2ccc(-c3ccccc3)cc2)c2ccc(Cl)cc21		luciferase	Huh7	Plasmodium berghei			EC50	>1 µM
CCCCN1C(=O)c2ccccc2NC1c1ccc(Cl)cc1		luciferase		Plasmodium berghei		ANKA	EC50	>20 µM
CN[C@@H](CC1=CN=c2c(O)c3c(c(O)c21)=NC=CS3(=O)=O)C(=O)O				Plasmodium falciparum		3D7	MIC	0.279 µM
Cc1ccc(N=c2ccn(CCCN3CCCCC3)c3cc(Cl)ccc23)cc1		luciferase	Huh7	Plasmodium berghei			EC50	>1 µM
CCCCN1C(=O)c2ccccc2NC1c1ccc(OC)c(COc2ccc(F)cc2)c1		luciferase		Plasmodium berghei		ANKA	EC50	7.8 µM
CO/C(=N/NC(=O)OC(C)(C)C)C(C)(O)c1ccc(Cl)c(Cl)c1	5 µM	hypoxanthine uptake / radiometric		Plasmodium falciparum		3D7	inhibition	66%
Cc1ccc(N(C)C(=O)c2c[n+]3c(cn2)CN=C3c2ccc(C(F)(F)F)cc2)nn1		SYBR Green		Plasmodium yoelii			EC50	>10 µM
CCN(CC)CCn1ccc(=Nc2ccc(-c3ccccc3)cc2)c2ccc(Cl)cc21		luciferase	Huh7	Plasmodium berghei			EC50	>1 µM
CCO/C(=N/NC(=O)OC(C)(C)C)C(C)(O)c1ccc2ccccc2c1	5 µM	hypoxanthine uptake / radiometric		Plasmodium falciparum		3D7	inhibition	56%
CCCCN1C(=O)c2ccccc2NC1c1ccc(OC)cc1		luciferase		Plasmodium berghei		ANKA	EC50	>20 µM
CCN(CC)CCCC(C)Nc1ccnc2cc(Cl)ccc12	0.031 µg/mL			Plasmodium falciparum	48 h	Dd2	inhibition	35%
CCN(CC)CCCCn1ccc(=Nc2ccc(-c3ccccc3)cc2)c2ccc(C(F)(F)F)cc21		luciferase	Huh7	Plasmodium berghei			EC50	>1 µM
NC1=Nc2ccc(Cl)cc2C1(O)c1ccccc1		fluorescence		Plasmodium spp.		PF 3D7	EC50	200 nM
CCO/C(=N/NC(=O)OC(C)(C)C)C(O)c1cccc2ccccc12	5 µM	hypoxanthine uptake / radiometric		Plasmodium falciparum		3D7	inhibition	7%
Clc1ccc2c(c1)c(=Nc1ccc(-c3ccccc3)cc1)ccn2CCCN1CCCCC1		luciferase	Huh7	Plasmodium berghei			EC50	>1 µM
CCN(CC)CCN1C(=O)c2ccccc2NC1c1ccc(Cl)cc1		luciferase		Plasmodium berghei		ANKA	EC50	4.1 µM
CC(C)(C)c1cc(C(=O)Nc2nc(CN)cs2)n(Cc2ccccc2)n1				Plasmodium berghei		K1	EC50	0.08 µM
Clc1ccc2c(=Nc3ccc(-c4ccccc4)cc3)ccn(CCCN3CCCCC3)c2c1		luciferase	Huh7	Plasmodium berghei			EC50	>1 µM

The first 2 rows once more:

structure | dose | read by | cell line | agent | setting | strain | endpoint | value
CCO/C(Cc1ccc(Cl)c(Cl)c1)=N/NC(=O)OC(C)(C)C | 5 µM | hypoxanthine uptake / radiometric |  | Plasmodium falciparum |  | 3D7 | inhibition | 5%
CCN(CC)CCCn1ccc(=Nc2ccc(-c3ccccc3)cc2)c2ccc(Cl)cc21 |  | luciferase | Huh7 | Plasmodium berghei |  |  | EC50 | >1 µM